Source: PubChem BioAssay (NCI)
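Protocol summary: plate cells (96-well), add compound at 5 concentrations, incubate 48 h, interpolate endpoints linearly. GI50: concentration for 50% inhibition of growth. TGI: concentration producing complete growth inhibition.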

Key:
Test in all cases: DTP human tumour cell line panel, 48 h
SF-268 CNS = test system: SF-268 CNS
MDA-N = test system: MDA-N
OVCAR-5 ovarian = test system: OVCAR-5 ovarian
UO-31 renal = test system: UO-31 renal
CCRF-CEM leukemia = test system: CCRF-CEM leukemia
U251 CNS = test system: U251 CNS
A498 renal = test system: A498 renal
SK-MEL-2 melanoma = test system: SK-MEL-2 melanoma
OVCAR-4 ovarian = test system: OVCAR-4 ovarian
T-47D breast = test system: T-47D breast
NCI/ADR-RES ovarian = test system: NCI/ADR-RES ovarian
PC-3 prostate = test system: PC-3 prostate
HL-60(TB) leukemia = test system: HL-60(TB) leukemia
SK-MEL-5 melanoma = test system: SK-MEL-5 melanoma
786-0 renal = test system: 786-0 renal
SF-539 CNS = test system: SF-539 CNS
HOP-62 NSCLC = test system: HOP-62 NSCLC
SR leukemia = test system: SR leukemia
HCC-2998 colon = test system: HCC-2998 colon
UACC-257 melanoma = test system: UACC-257 melanoma
HCT-116 colon = test system: HCT-116 colon
M14 melanoma = test system: M14 melanoma
BT-549 breast = test system: BT-549 breast
SK-OV-3 ovarian = test system: SK-OV-3 ovarian
MCF7 breast = test system: MCF7 breast
UACC-62 melanoma = test system: UACC-62 melanoma
SK-MEL-28 melanoma = test system: SK-MEL-28 melanoma
EKVX NSCLC = test system: EKVX NSCLC
OVCAR-8 ovarian = test system: OVCAR-8 ovarian
K-562 leukemia = test system: K-562 leukemia
NCI-H226 lung = test system: NCI-H226 lung
LOX IMVI melanoma = test system: LOX IMVI melanoma
OVCAR-3 ovarian = test system: OVCAR-3 ovarian
MDA-MB-435 = test system: MDA-MB-435
DU-145 prostate = test system: DU-145 prostate
NCI-H23 lung = test system: NCI-H23 lung
RPMI-8226 leukemia = test system: RPMI-8226 leukemia
HOP-92 NSCLC = test system: HOP-92 NSCLC
TK-10 renal = test system: TK-10 renal
SW-620 colon = test system: SW-620 colon
SNB-19 CNS = test system: SNB-19 CNS
IGROV1 ovarian = test system: IGROV1 ovarian
NCI-H460 lung = test system: NCI-H460 lung
HT29 colon = test system: HT29 colon
SNB-75 CNS = test system: SNB-75 CNS
NCI-H522 lung = test system: NCI-H522 lung
MALME-3M melanoma = test system: MALME-3M melanoma
COLO 205 colon = test system: COLO 205 colon
CAKI-1 renal = test system: CAKI-1 renal
MDA-MB-231 breast = test system: MDA-MB-231 breast
SF-295 CNS = test system: SF-295 CNS
RXF 393 renal = test system: RXF 393 renal
MOLT-4 leukemia = test system: MOLT-4 leukemia
HCT-15 colon = test system: HCT-15 colon
A549 NSCLC = test system: A549 NSCLC
KM12 colon = test system: KM12 colon
ACHN renal = test system: ACHN renal

CC(=O)OC[C@]12C[C@H](OC(=O)CC(C)C)C(C)=C[C@H]1O[C@@H]1[C@H](O)[C@@H](O)[C@@]2(C)[C@@]12CO2
GI50 (SF-268 CNS): 0.0275 µM | TGI (SF-268 CNS): 0.145 µM | GI50 (MDA-N): 0.0198 µM | TGI (MDA-N): 0.0929 µM | GI50 (OVCAR-5 ovarian): 0.0737 µM | TGI (OVCAR-5 ovarian): 2.24 µM | GI50 (UO-31 renal): 0.0177 µM | TGI (UO-31 renal): 0.118 µM | GI50 (CCRF-CEM leukemia): 0.0147 µM | TGI (CCRF-CEM leukemia): 2.12 µM | GI50 (U251 CNS): 0.0164 µM | TGI (U251 CNS): 0.0836 µM | GI50 (A498 renal): 0.0161 µM | TGI (A498 renal): 0.0424 µM | GI50 (SK-MEL-2 melanoma): 0.0227 µM | TGI (SK-MEL-2 melanoma): 0.105 µM | GI50 (OVCAR-4 ovarian): 0.0684 µM | TGI (OVCAR-4 ovarian): 1.92 µM | GI50 (T-47D breast): 0.0188 µM | TGI (T-47D breast): 0.639 µM | GI50 (NCI/ADR-RES ovarian): 0.15 µM | TGI (NCI/ADR-RES ovarian): 2.94 µM | GI50 (PC-3 prostate): 0.0239 µM | TGI (PC-3 prostate): 0.309 µM | GI50 (HL-60(TB) leukemia): 0.0182 µM | TGI (HL-60(TB) leukemia): > 100 µM | GI50 (SK-MEL-5 melanoma): 0.012 µM | TGI (SK-MEL-5 melanoma): 0.041 µM | GI50 (786-0 renal): 0.0211 µM | TGI (786-0 renal): 0.201 µM | GI50 (SF-539 CNS): 0.0137 µM | TGI (SF-539 CNS): 0.0427 µM | GI50 (HOP-62 NSCLC): 0.0198 µM | TGI (HOP-62 NSCLC): 1.67 µM | GI50 (SR leukemia): 0.0109 µM | TGI (SR leukemia): 0.024 µM | GI50 (HCC-2998 colon): < 0.01 µM | TGI (HCC-2998 colon): 0.0226 µM | GI50 (UACC-257 melanoma): 0.0211 µM | TGI (UACC-257 melanoma): 0.134 µM | GI50 (HCT-116 colon): < 0.01 µM | TGI (HCT-116 colon): 0.0341 µM | GI50 (M14 melanoma): 0.0165 µM | TGI (M14 melanoma): 0.162 µM | GI50 (BT-549 breast): 0.0312 µM | TGI (BT-549 breast): 0.712 µM | GI50 (SK-OV-3 ovarian): 0.0291 µM | TGI (SK-OV-3 ovarian): 2.94 µM | GI50 (MCF7 breast): < 0.01 µM | TGI (MCF7 breast): 4.07 µM | GI50 (UACC-62 melanoma): 0.0197 µM | TGI (UACC-62 melanoma): 0.139 µM | GI50 (SK-MEL-28 melanoma): 0.0202 µM | TGI (SK-MEL-28 melanoma): 0.119 µM | GI50 (EKVX NSCLC): 0.0256 µM | TGI (EKVX NSCLC): 0.122 µM | GI50 (OVCAR-8 ovarian): 0.0171 µM | TGI (OVCAR-8 ovarian): 0.0747 µM | GI50 (K-562 leukemia): 0.0128 µM | TGI (K-562 leukemia): 6.77 µM | GI50 (NCI-H226 lung): 0.0154 µM | TGI (NCI-H226 lung): 0.0332 µM | GI50 (LOX IMVI melanoma): < 0.01 µM | TGI (LOX IMVI melanoma): 0.0141 µM | GI50 (OVCAR-3 ovarian): 0.0129 µM | TGI (OVCAR-3 ovarian): 0.0571 µM | GI50 (MDA-MB-435): 0.0236 µM | TGI (MDA-MB-435): 0.158 µM | GI50 (DU-145 prostate): 0.0388 µM | TGI (DU-145 prostate): 0.267 µM | GI50 (NCI-H23 lung): 0.0175 µM | TGI (NCI-H23 lung): 0.53 µM | GI50 (RPMI-8226 leukemia): < 0.01 µM | TGI (RPMI-8226 leukemia): 0.0213 µM | GI50 (HOP-92 NSCLC): 0.018 µM | TGI (HOP-92 NSCLC): 0.0686 µM | GI50 (TK-10 renal): 0.0198 µM | TGI (TK-10 renal): 0.122 µM | GI50 (SW-620 colon): 0.0215 µM | TGI (SW-620 colon): 8.25 µM | GI50 (SNB-19 CNS): 0.0151 µM | TGI (SNB-19 CNS): 0.344 µM | GI50 (IGROV1 ovarian): < 0.01 µM | TGI (IGROV1 ovarian): 0.0298 µM | GI50 (NCI-H460 lung): < 0.01 µM | TGI (NCI-H460 lung): 0.0508 µM | GI50 (HT29 colon): 0.0174 µM | TGI (HT29 colon): 0.0831 µM | GI50 (SNB-75 CNS): 0.0418 µM | TGI (SNB-75 CNS): 0.443 µM | GI50 (NCI-H522 lung): < 0.01 µM | TGI (NCI-H522 lung): 0.0209 µM | GI50 (MALME-3M melanoma): < 0.01 µM | TGI (MALME-3M melanoma): 0.0203 µM | GI50 (COLO 205 colon): 0.0393 µM | TGI (COLO 205 colon): 0.188 µM | GI50 (CAKI-1 renal): 0.0362 µM | TGI (CAKI-1 renal): 0.688 µM | GI50 (MDA-MB-231 breast): 0.0839 µM | TGI (MDA-MB-231 breast): 0.328 µM | GI50 (SF-295 CNS): 0.0278 µM | TGI (SF-295 CNS): 0.873 µM | GI50 (RXF 393 renal): 0.0173 µM | TGI (RXF 393 renal): 0.0665 µM | GI50 (MOLT-4 leukemia): < 0.01 µM | TGI (MOLT-4 leukemia): 0.0138 µM | GI50 (HCT-15 colon): 0.017 µM | TGI (HCT-15 colon): 0.137 µM | GI50 (A549 NSCLC): 0.0228 µM | TGI (A549 NSCLC): 0.286 µM | GI50 (KM12 colon): 0.0187 µM | TGI (KM12 colon): 1.29 µM | GI50 (ACHN renal): 0.0201 µM | TGI (ACHN renal): 0.133 µM
